Our source for the IC50 values is patent US20090176776A1, “SMALL MOLECULE INHIBITORS OF HIV-1 CAPSID ASSEMBLY” (UNIVERSITY OF ALABAMA AT BIRMINGHAM, priority 2005, published 2009).

The target in this experiment is recombinant HIV-1 capsid protein (CA) (Human immunodeficiency virus type 1 group M subtype B, UniProt P12493). The experiment can be described thus: Turbidity based HIV-1 capsid assembly assay. Format: biochemical. Conditions: initial assembly rate by turbidity; twofold dilutions over a 128 fold range; 30 μM CA, 2.25 M NaCl.

Turning to `Oc1c(Br)cc(C=NNc2nc3ccccc3s2)c(O)c1Br`, the concentration for half-maximal inhibition (IC50) turned out to be 8 µM.
